Data published in PMC8578908.

Biological target: human angiotensin-converting enzyme 2 receptor (human) (UniProt Q9BYF1)
Assay: SPR; BIAcore assay; who was immobilised and the conditions are not given

## SARS-CoV-2 RBD206 (I332-K537) (from UniProt P0DTC2 332-537) (domain or fragment; other documents disagree on this pair)
  Kd: 1.16 nM
